Assay results reported in patent US10357514B2, “Treatment of cancer using anti-CD19 Chimeric Antigen Receptor” (The Trustees of the University of Pennsylvania, priority 2014, dated 2019).

Tested on: A/H1N1/California/07/2009 influenza
Test: Serum anti-influenza IgG and IgM before and 4 weeks post influenza vaccination
Type: in vivo, human
Settings: 4 weeks post vaccination

CO[C@H]1C[C@@H]2CC[C@@H](C)[C@@](O)(O2)C(=O)C(=O)N2CCCC[C@H]2C(=O)O[C@H]([C@H](C)C[C@@H]2CC[C@@H](OCCO)[C@H](OC)C2)CC(=O)[C@H](C)/C=C(\C)[C@@H](O)[C@@H](OC)C(=O)[C@H](C)C[C@H](C)/C=C/C=C/C=C/1C [RAD001, (1R,9S,12S,15R,16E,18R,19R,21R,23S,24E,26E,28E,30S,32S,35R)-1,18-dihydroxy-12-{(1R)-2-[(1S,3R,4R)-4-(2-hydroxyethoxy)-3-methoxycyclohexyl]-1-methylethyl}-19,30-dimethoxy-15,17,21,23,29,35-hexamethyl-11,36-dioxa-4-aza-tricyclo[30.3.1.04,9]hexatriaconta-16,24,26,28-tetraene-2,3,10,14,20-pentaone]
change from baseline in anti-H1N1 influenza IgG and IgM levels vs placebo: No significant difference
